Primary screen of a compound library

From ChEMBL document CHEMBL3988442, “University of Dundee, Small-Polar-MMV Screening Library” (2021).

Mtb glucose medium: 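Phenotypic screen: M. tuberculosis growth, glucose 7H9 medium, 3 days; the read-out is not stated. Compounds at 50 µM. Direction is inferred from retests: higher values go with more growth inhibition. Size under these conditions: about 69,000 compounds, about 760 of them at 50% or above in at least one test.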
Mtb cholesterol medium: 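Growth of Mycobacterium tuberculosis over 4 days (cholesterol / DPPC medium with tyloxapol); the read-out is not stated. Concentration: 50 µM. Higher reads as more growth inhibition (inferred: compounds with an IC50 in retests scored well above the rest). About 69,000 compounds were tested under these conditions; 0.54% (about 370) showed 50% or more at least once.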

Values are the deposited “Percent Effect”, in %.
How 0% and 100% were set is not recorded. Most values in the screen are low, and negative values occur.
Many other results are left out here, so strong results are more common than in the screen.
Two or more numbers in one place are separate tests of the same structure; such repeats can differ widely.
A dash means the value is not listed here; it may have been measured.

compound,Mtb glucose medium,Mtb cholesterol medium
N#Cc1cccc(S(=O)(=O)N2CCCCC2CCN2CCCC2)c1 (stereo not shown),60.69%,-
OC(CNC1CCOCC1)c1ccc(Cl)c(F)c1 (stereo not shown),18.74%,-
CCCc1cc(C(=O)N2CC(c3ccncc3)C2)ccn1,18.82%,-10.64%
Fc1cccc(-n2cccn2)c1NCc1nnc(C2CC2)o1,-,-18.22%
O=C(NCC(O)c1ccc(Cl)c(F)c1)NC1CC=CC1 (stereo not shown),17.54%,-
c1ccc(-c2nccc(N3CCc4c(ncn4C4CC4)C3)n2)cc1,32.27%,16.77%
CN1CCCN(C(=O)c2cc3c(s2)CCN3C(=O)c2ccccc2)CC1,16.59%,-
COC1CCN(Cc2csc(C(C)C)n2)CC1,-29.64%,-
Cc1ccc(-c2cc(N)c(=O)n(C(C)C(=O)NC(C)C)n2)o1 (stereo not shown),-4.604%,-20.23% & 3.582%
Fc1ccc([C@@H]2COC[C@H]2NCc2cccc(F)c2)cc1.O=C(O)CC(O)(CC(=O)O)C(=O)O,3.941%,-
CCn1c(C(=O)N2CCN(C(=O)NC(C)C)CC2)cc2ccccc21,4.215%,-
CS(=O)(=O)NC[C@H]1Cn2c(-c3ccccc3)cnc2CO1,12.43% & 17.94%,-
Cc1cccc(C(=O)NCc2ccccc2)n1,38.61%,32.75%
CSc1nccc(N2CCC3(CCCN(CC4CC4)C3)C2)n1 (stereo not shown),-35.64%,-3.435%
Cc1cccc(N(CC(=O)N2CCCCC2)Cc2nc(=O)[nH][nH]2)c1,21.04%,-
Cc1cc(N(C)Cc2c(C)noc2C)n2nc(C)c(C)c2n1,12.71% & -1.511%,3.229%
CCC(O)CNc1ccc(-c2nc(CC(C)C)no2)cn1 (stereo not shown),54.98% & 40.5%,32.86%
O=C(c1cnc(-c2noc3cc(N4CCCC4)ccc23)s1)N1CCCC1,54.53% & -2.864%,-
CC(C)CCCC1CN(C(=O)c2cnc[nH]2)CCO1 (stereo not shown),58.44% & 5.82%,-
Cc1cccc(CS(=O)(=O)c2nnc(N3CCOCC3)s2)c1,0.3422% & 5.678%,5.296%
CC(C)N1CCC(CNCc2c[nH]nc2C(C)(C)C)C1 (stereo not shown),45.4%,37.29%
COc1ccc(OCCN2CCCN(Cc3noc(C)n3)CC2)cc1,-,-16.97%
CN(Cc1cccc(OC(F)(F)F)c1)C(=O)c1ccncc1F,-1.801%,-5.055%
CCc1[nH]c2c(CNc3nc(C)cc(NC)n3)cc(C)cc2c1C,84.45% & 72.51%,80.48%
CN(C)CCN1CCCC12CCN(C(=O)c1cccnc1)CC2.O=C(O)C(F)(F)F.O=C(O)C(F)(F)F,-,8.975%
CCCOc1cc(CNC(=O)Nc2ccccn2)ccn1,-5.761%,-15.66%
O=C(NCC1SCCc2ccccc21)c1cscn1 (stereo not shown),33.38%,-
COc1ccc(-c2nc(CNC(C)Cn3cccn3)cs2)cc1 (stereo not shown),59.35%,-
O=C(NC1CC1)c1ccnc(N2CCOC(c3ccc(Cl)c(Cl)c3)C2)c1 (stereo not shown),54.77%,-
COCCN1CCC(CNC(=O)c2cc(C)cc(C)c2)C1 (stereo not shown),37.33%,18.01%
COCC(=O)NC[C@H]1CC[C@H](c2ccnc3ncnn32)CC1,-5.143%,-
COCc1noc(-c2ccc(N(C)Cc3ncccc3C)nc2)n1,-,-1.136% & -14.03%
Cc1cnn(CCNCC(O)COc2ccc(Cl)cc2Cl)c1 (stereo not shown),2.773%,24.87%
Cl.O=c1c2sccc2nc2n1CCN(Cc1ccccc1C(F)(F)F)CC2,28.7%,120.3%
CC(C)(C)Cc1nnc(NCc2cccc(C#N)c2)o1,-28.52%,-
COCCNc1nc(-c2ccc(S(=O)(=O)N3CCCCCC3)cc2)cs1,39.15%,17.13%
O=C(CNc1cccc(S(=O)(=O)C(F)F)c1)Nc1ccccc1,-6.102%,-3.867%
CC1(C(=O)Nc2ccc(F)c(-n3cccc3)c2)CCOCC1,25.34%,-
CC[C@H](C)[C@@H](CO)NC(C)Cc1ccc(Cl)cc1 (stereo partly shown),0.2173%,-
Cc1ncsc1CCC(=O)N1CCn2cccc2C1c1cccnc1 (stereo not shown),-,4.754%
Cc1nc(CN2CCCC(N(C)CCCc3ccccc3)C2)no1 (stereo not shown),-25.5% & -7.434%,-
O=C(CCn1ccccc1=O)N1CCCC(COc2ccc(F)cc2)C1 (stereo not shown),-8.782%,-
O=C(c1cc[nH]n1)N1CCCC(c2cccc(-n3ccnc3)n2)C1 (stereo not shown),85.39%,-
c1ccc(CCCN2CCN(c3ccc4nncn4n3)CC2)cc1,16.02%,-
Cc1csc(N2CCN(C(=O)c3ccc(C)s3)CC2)n1,76.71%,-
O=C(NCCNc1ccccn1)NCC1CCS(=O)(=O)C1 (stereo not shown),-34.69% & -7.742%,-
O=S1(=O)CCCN1Cc1coc(-c2cccs2)n1,-2.994% & -1.886%,-15.95%
Cc1cc(Br)oc1C(=O)N1CCCN(CC(N)=O)CC1,-36.48%,-
COCC(=O)NCC(Cc1cccc(F)c1)n1cccc1 (stereo not shown),29.84% & 19.37%,-
O=C(O)C(F)(F)F.c1cnc(N2CCOCC3(CN(Cc4ccsc4)CCO3)C2)nc1 (stereo not shown),-,10.83%
Cc1ncc(CN2CCCN(Cc3noc(C4CC4)n3)CC2)s1,-,-10.53%
COc1cc(-c2ccc(F)c3c2OC(CN)C3)cc(OC)c1OC (stereo not shown),37.59%,31.81% & 7.855%
COc1ccc(S(=O)(=O)NCCC(O)c2ccccc2)c(C)c1 (stereo not shown),5.783% & 8.26%,-
Clc1cc(CN2CCCC(Cn3cncn3)C2)c2ncccc2c1 (stereo not shown),14.66% & 12.28%,-
CC(=O)NCc1noc2c1CN(Cc1ccsc1)CC2,94.94% & 8.659%,-
O=S(=O)(c1cc(F)ccc1N1CC(n2cccn2)C1)C(F)(F)F,37.95%,23.6%
COCCC(=O)N1CCC(C(=O)c2cc(C)cnc2N)CC1,-,51.53%
CC(=O)c1ccc(NC(=O)N[C@H](C(=O)O)C(C)C)cc1,-14.65%,20.34%
Cc1cc(C)c2ncc(C#N)c(NC3CCN(CC(N)=O)CC3)c2c1,-19.37% & 27.9%,-

Repeated from the top, 6 entries:

| compound | Mtb glucose medium | Mtb cholesterol medium |
|---|---|---|
| `N#Cc1cccc(S(=O)(=O)N2CCCCC2CCN2CCCC2)c1` (stereo not shown) | 60.69% | - |
| `OC(CNC1CCOCC1)c1ccc(Cl)c(F)c1` (stereo not shown) | 18.74% | - |
| `CCCc1cc(C(=O)N2CC(c3ccncc3)C2)ccn1` | 18.82% | -10.64% |
| `Fc1cccc(-n2cccn2)c1NCc1nnc(C2CC2)o1` | - | -18.22% |
| `O=C(NCC(O)c1ccc(Cl)c(F)c1)NC1CC=CC1` (stereo not shown) | 17.54% | - |
| `c1ccc(-c2nccc(N3CCc4c(ncn4C4CC4)C3)n2)cc1` | 32.27% | 16.77% |